Measured values from several laboratories, pooled; numbers as filed in NIAID ChemDB.

Common to all: whole-cell or culture tests; organism: HIV-1

Inhibition is in % at the dose shown (toxicity tests: loss of growth or viability). Fold resistance has wild type as its base. Neighbouring rows are from separate reports. Blank or dashed fields: not listed here. a–b is a range or a potency band. ECn is the concentration giving n% inhibition of infection, replication or growth.

| SMILES | strain or isolate | changes | cell line | method | endpoint | tested at | result |
|---|---|---|---|---|---|---|---|
| CC(C)=CCOc1cc(NC(=S)c2ccsc2C)ccc1Cl | UC040-R (RT-Y181C) | RT-Y181C | CEM + CEM-SS | cytopathic effect / XTT | fold resistance | - | 20 |
| Cn1c(=O)c(O)c2n(c1=O)CCN(Cc1ccc(F)cc1)C2=O | - | - | MT-4 | p24 | EC95 | - | <10 µM |
| Cc1cc(S(N)(=O)=O)ccc1NC(=O)COc1ccc(Cl)cc1C(=O)c1cc(F)cc(C#N)c1 | HXB2 | RT-V106I | HeLa + HELA CD4+ | β-galactosidase | fold resistance | - | ~1 |
| COc1ccc(S(=O)(=O)N(CC(C)C)C[C@@H](O)CCN(CC2CCCC2)S(=O)(=O)C2CCCC2)cc1 | IIIB | - | CEM | p24 | EC90 | - | 1 µM |
| CCC(=O)c1ccc(F)c([C@@H]2C[C@@H]2NC(=O)Nc2ccc(C#N)cn2)c1O | LAI | NNRTI-resistant (RT K101E/K103N) | TZM-bl | β-galactosidase / luminescence | fold resistance | - | 56.3 |
| Cc1cc(C#N)cc(C(=O)c2cc(Cl)ccc2OCC(=O)Nc2ccc(OCCCN3CC=CC3)cc2C)c1 | HXB2 | RT-V108I Y181C | HeLa + HELA CD4+ | β-galactosidase | fold resistance | - | ~1 |
| O=C1c2c(O)c(=O)n(C3CCC(O)CC3)c(=O)n2CCN1Cc1ccc(F)cc1 | - | - | MT-4 | p24 | EC95 | - | <10 µM |
| COc1ccc(S(=O)(=O)N(CCC(O)CN(CC(C)C)S(=O)(=O)c2ccccc2)CC2CCCC2)cc1 | IIIB | - | CEM | p24 | EC90 | - | 1 µM |
| O=C1[C@@H](Cc2ccccc2)NC(=S)N1Cc1ccccc1 | - | - | MT-4 | RT activity | inhibition | 1 µg/mL | 1% |
| CC(C)[C@H](NC(=O)OCc1ccccn1)C(=O)N[C@@H](Cc1ccccc1)[C@@H](O)C[C@H](Cc1ccccc1)NC(=O)OCc1cccnc1 | NL4-3 | - | MT-4 | p24 | EC95 | - | 0.8 µM |
| CC1(C)c2nc(C(=O)NCc3ccc(F)cc3)c(O)c(=O)n2CN1Cc1cccnc1 | - | - | MT-4 | p24 | EC95 | - | <1 µM |
| O=C(NCCc1ccccc1)Nc1cncc(Cl)n1 | - | - | MT-4 | cytopathic effect / XTT | inhibition | 10 µg/mL | 49–100% |
| Cc1cc(S(N)(=O)=O)ccc1NC(=O)COc1ccc(Cl)cc1C(=O)c1cc(F)cc(C(F)(F)F)c1 | HXB2 (RT-K103N G100I) Recombinant | RT-L100I K103N | HeLa + HELA CD4+ | β-galactosidase | fold resistance | - | ~1 |
| COc1ccc(S(=O)(=O)NC(CC(C)C)C(F)(F)C(=O)[C@@H](Cc2ccccc2)NC(=O)O[C@H]2CCOC2)cc1 | IIIB | - | CEM | p24 | EC90 | - | 1 µM |
| O=C(NCCc1ccccc1)Nc1nc(C(F)(F)F)cs1 | - | - | MT-4 | cytopathic effect / XTT | inhibition | 10 µg/mL | 16–31% |
| O=C1c2c(O)c(=O)n([C@@H]3CCCC[C@@H]3O)c(=O)n2CCN1Cc1ccc(F)cc1 | - | - | MT-4 | p24 | EC95 | - | <10 µM |
| Cc1ccc(-c2ccc3c(c2)C=C(C(=O)Nc2ccc(C[N+](C)(C)C4CCOCC4)cc2)CCC3)cc1 | PCP1 CLADE C | - | PBMC | p24 | inhibition | 1 µM | 10.1% |
| O=C(NCCc1ccccc1)Nc1ccccn1 | - | - | MT-4 | cytopathic effect / XTT | inhibition | 10 µg/mL | 2% |
| Nc1nc(NC2CC2)c2ncn([C@H]3C=C[C@@H](CO)C3)c2n1 | XM-M184V | RT-M184V | MT-4 | p24 | EC90 | - | 9.5 µM |
| CN(CC1c2nc(C(=O)NCc3ccc(F)cc3)c(O)c(=O)n2CCN1C)C(=O)CS(C)(=O)=O | - | - | MT-4 | p24 | EC95 | - | <50 µM |
| CC(C)=CCOc1cc(NC(=S)c2ccsc2C)ccc1Cl | NL4-3 | RT-L74V | CEM + CEM-SS | p24 | fold resistance | - | 1 |
| COc1ccnc2[nH]cc(C(=O)C(=O)N3C4CCCC3CN(C(=O)c3ccccc3)C4)c12 | 6535 | - | TZM-bl | luciferase | EC90 | - | 6.7 µM |
| Nc1nc(=O)n([C@H]2C=C[C@@H](CO)O2)cc1F | NL-XM WT | - | MT-4 | p24 | EC90 | - | 1.4 µM |
| COc1ccnc2[nH]cc(C(=O)C(=O)N3C4CCC3CN(C(=O)c3ccccc3)C4)c12 | ZM214 | - | TZM-bl | luciferase | EC90 | - | 59 µM |
| CC(C)CN(CCC(O)Cc1ccccc1C(=O)NC(C)(C)C)S(=O)(=O)c1ccccc1 | IIIB | - | CEM | p24 | EC90 | - | 1 µM |
| Cc1cc(C#N)cc(C(=O)c2cc(Cl)ccc2OCC(=O)Nc2ccc(S(N)(=O)=O)nc2C)c1 | HXB2 | RT-K103N P225H | HeLa + HELA CD4+ | β-galactosidase | fold resistance | - | ~1 |
| C[C@@H]1CCO[C@H]2Cn3cc(C(=O)NCc4ccc(F)cc4F)c(=O)c(O)c3C(=O)N12 | NL4-3 | H51Y/R263K | CBMC | RT activity | fold resistance | - | 2 |
| O=C(NCCc1ccccc1)Nc1nc2c(Cl)cccc2s1 | - | - | MT-4 | RT activity | inhibition | 100 µg/mL | 97% |
| Cc1cc(S(N)(=O)=O)ccc1NC(=O)COc1ccc(Cl)cc1C(=O)c1cccc(C#N)n1 | HXB2 | RT-V106I | HeLa + HELA CD4+ | β-galactosidase | fold resistance | - | ~1 |
| O=C1Nc2ccc(Cl)cc2[C@@](C#CC2CC2)(C(F)(F)F)N1 | - | RT-V108I | - | - | EC90 | - | <0.012 µM |
| COc1ccc(S(=O)(=O)N(CC(C)C)C[C@@H](O)CCN(CC2CCCC2)S(=O)(=O)Cc2cccc3nc(C)oc23)cc1 | IIIB | - | CEM | p24 | EC90 | - | 1 µM |
| CC(C)=CCOc1cc(NC(=S)c2ccoc2C)ccc1Cl | HEPT-resistant (RT P236L) | RT-P236L | CEM + CEM-SS | cytopathic effect / XTT | fold resistance | - | 2 |
| CN(C)C(=O)C(=O)N(C)C1CN(CC2CC2)CCn2c1nc(C(=O)NCc1ccc(F)cc1)c(O)c2=O | - | - | MT-4 | p24 | EC95 | - | <1 µM |
| Cc1cc2cn[nH]c2cc1NC(=O)COc1ccc(Cl)cc1C(=O)c1cccc(C#N)c1 | HXB2 | RT-V106I Y181C | HeLa + HELA CD4+ | β-galactosidase | fold resistance | - | ~10 |
| CN(C)C(=O)CC1Cn2c(c(O)c(=O)n(C3CCCC3)c2=O)C(=O)N1Cc1ccc(F)cc1 | - | - | MT-4 | p24 | EC95 | - | <10 µM |
| O=C1Nc2ccc(F)c(F)c2[C@@](/C=C/C2CC2)(C(F)(F)F)N1 | - | RT-K103N Y181C | - | - | fold resistance | - | 57.9 |
| COc1ccc(S(=O)(=O)N(CC(C)C)C[C@@H](O)CCN(CCc2ccccc2)C(=O)O[C@H]2COC3OCCC32)cc1 | IIIB | - | CEM | p24 | EC90 | - | 1 µM |
| Cc1cc(N2CCS(=O)CC2)ccc1NC(=O)COc1ccc(Cl)cc1C(=O)c1cccs1 | HXB2 | RT-K103N | HeLa + HELA CD4+ | β-galactosidase | fold resistance | - | ~1 |
| CC(C)CN(C[C@@H](O)CN(CCc1ccccc1)C(=O)O[C@H]1CCOC1)S(=O)(=O)c1cccc(N)c1 | IIIB | - | CEM | p24 | EC90 | - | 0.1 µM |
| Cc1ccc(C)n1-c1ccc(C(=O)O)c(O)c1 | BCF02 R5 GROUP O | - | PBMC + MT-2 | p24 | EC90 | - | 8.94 µM |
| COc1ccc(S(=O)(=O)N(CC(C)C)C[C@@H](O)CCN(CC2CCCC2)S(=O)(=O)Cc2cc(C)on2)cc1 | IIIB | - | CEM | p24 | EC90 | - | 1 µM |
| CC1(C)c2nc(C(=O)NCc3ccc(F)cc3)c(O)c(=O)n2CCN1Cc1ccn[nH]1 | - | - | MT-4 | p24 | EC95 | - | <1 µM |
| COc1ccc(S(=O)(=O)N(CC(C)C)C[C@@H](O)CCc2ccccc2C(=O)NC(C)(C)C)cc1 | IIIB | - | CEM | p24 | EC90 | - | 1 µM |
| CN1CCN(C(=O)CN2CCn3c(nc(C(=O)NCc4ccc(F)cc4)c(O)c3=O)C2(C)C)CC1 | - | - | MT-4 | p24 | EC95 | - | <1 µM |

Again, the opening 7 rows:

| SMILES | strain or isolate | changes | cell line | method | endpoint | tested at | result |
|---|---|---|---|---|---|---|---|
| CC(C)=CCOc1cc(NC(=S)c2ccsc2C)ccc1Cl | UC040-R (RT-Y181C) | RT-Y181C | CEM + CEM-SS | cytopathic effect / XTT | fold resistance | - | 20 |
| Cn1c(=O)c(O)c2n(c1=O)CCN(Cc1ccc(F)cc1)C2=O | - | - | MT-4 | p24 | EC95 | - | <10 µM |
| Cc1cc(S(N)(=O)=O)ccc1NC(=O)COc1ccc(Cl)cc1C(=O)c1cc(F)cc(C#N)c1 | HXB2 | RT-V106I | HeLa + HELA CD4+ | β-galactosidase | fold resistance | - | ~1 |
| COc1ccc(S(=O)(=O)N(CC(C)C)C[C@@H](O)CCN(CC2CCCC2)S(=O)(=O)C2CCCC2)cc1 | IIIB | - | CEM | p24 | EC90 | - | 1 µM |
| CCC(=O)c1ccc(F)c([C@@H]2C[C@@H]2NC(=O)Nc2ccc(C#N)cn2)c1O | LAI | NNRTI-resistant (RT K101E/K103N) | TZM-bl | β-galactosidase / luminescence | fold resistance | - | 56.3 |
| Cc1cc(C#N)cc(C(=O)c2cc(Cl)ccc2OCC(=O)Nc2ccc(OCCCN3CC=CC3)cc2C)c1 | HXB2 | RT-V108I Y181C | HeLa + HELA CD4+ | β-galactosidase | fold resistance | - | ~1 |
| O=C1c2c(O)c(=O)n(C3CCC(O)CC3)c(=O)n2CCN1Cc1ccc(F)cc1 | - | - | MT-4 | p24 | EC95 | - | <10 µM |